Results of unrelated studies side by side (data: NIAID ChemDB).

Common to all: growth or infection tests; agent: Herpes simplex virus 2; endpoint: EC50

An empty or dashed field is not shown.

{"smiles": "O=c1[nH]c(=O)n([C@@H]2O[C@H](CO)[C@@H](O)[C@@H]2O)cc1/C=C/Br", "strain or isolate": "MS", "cells": "CCRF-HSV-B", "read by": "plaque count", "value": ">100 µg/mL"}
{"smiles": "OC[C@H]1O[C@@H](c2cc(/C=C/I)c(F)cc2F)C[C@@H]1O", "strain or isolate": "LYONS", "cells": "E6SM", "read by": "cytopathic effect", "value": ">400 µg/mL"}
{"smiles": "O=C1O/C(=C\\Cn2cnc3c(Cl)ncnc32)C(OCc2ccc([N+](=O)[O-])cc2)=C1OCc1ccc([N+](=O)[O-])cc1", "strain or isolate": "G", "cells": "HeLa", "read by": "cytopathic effect", "value": "0.47 µM"}
{"smiles": "Nc1ncnc2c1ncn2[C@@H]1O[C@H](CO)[C@@H](O)[C@@H]1O", "cells": "HEP II", "read by": "cytopathic effect", "value": "3.2 µg/mL"}
{"smiles": "Nc1nc(=O)n([C@H]2C[C@H](O)[C@@H](CO)O2)cc1F", "cells": "HeLa", "read by": "virus yield", "value": "<5 µM"}
{"smiles": "Nc1nc2c(ncn2COCCO)c(=O)[nH]1", "strain or isolate": "T43648 (acyclovir-susceptible)", "cells": "HFF", "read by": "cytopathic effect", "value": "2.5 µg/mL"}
{"smiles": "Nc1nc2c(ncn2C[C@]2(CO)C[C@H]2CO)c(=O)[nH]1", "strain or isolate": "186 (TK-)", "cells": "MRC-5", "read by": "plaque count", "value": "78 µg/mL"}
{"smiles": "O=c1[nH]cnc2c1ncn2CC=C(CO)CO", "cells": "CCL18", "read by": "cytopathic effect", "value": ">100 µg/mL"}
{"smiles": "CCCCC(=O)OC[C@H]1O[C@@H](n2cnc3c(N)ncnc32)[C@@H](O)[C@@H]1O", "strain or isolate": "X-79", "cells": "MEF", "read by": "plaque count", "value": "19 µM"}
{"smiles": "Nc1nc2c(ncn2COCCO)c(=O)[nH]1", "strain or isolate": "196", "cells": "VERO", "read by": "plaque count", "value": "0.4 µM"}
{"smiles": "Cc1cccc(C)c1N(CC(=O)Nc1ccc(-c2ncon2)cc1)C(=O)C1CCS(=O)(=O)CC1", "strain or isolate": "2 (G)", "cells": "HEF", "read by": "plaque count", "value": "0.028 µM"}
{"smiles": "Cc1cn([C@H]2CC3(CO2)COC(C)(C)O3)c(=O)[nH]c1=O", "cells": "CCL18", "value": ">100 µM"}
{"smiles": "Nc1nc2c(ncn2COC2COP(=O)(O)OC2)c(=O)[nH]1", "cells": "HEF", "read by": "cytopathic effect", "value": "20 µM"}
{"smiles": "O=c1[nH]c(=O)n([C@H]2C[C@H](O)[C@@H](CO)O2)cc1CCCl", "strain or isolate": "196", "cells": "PRK", "read by": "cytopathic effect", "value": "1.8 µg/mL"}
{"smiles": "Nc1ccn([C@H]2C[C@@H](O)[C@H](CO)O2)c(=O)n1", "strain or isolate": "G", "cells": "VERO B", "read by": "cytopathic effect", "value": ">10 µM"}
{"smiles": "C/C(=N\\NC(=S)N(C)C)c1ccccn1", "strain or isolate": "X-79", "cells": "BHK-21/4", "read by": "plaque count", "value": "0.17 µg/mL"}
{"smiles": "O=c1[nH]c(=O)n([C@H]2C[C@H](O)[C@@H](CO)O2)cc1I", "strain or isolate": "VCX304", "cells": "PRK", "read by": "cytopathic effect", "value": "0.4 µg/mL"}
{"smiles": "Cc1cn([C@@H]2O[C@H](CO)[C@@H](O)[C@@H]2O)c(=O)[nH]c1=O", "strain or isolate": "MS", "cells": "CCRF-HSB-2", "read by": "plaque count", "value": "1.74 µM"}
{"smiles": "Cc1cn([C@@H]2O[C@H](COP(=O)(O)O)[C@@H](O)[C@@H]2O)c(=O)[nH]c1=O", "strain or isolate": "HG-52", "cells": "HELF", "read by": "cytopathic effect", "value": "1 µg/mL"}
{"smiles": "CC1(C)OCC(COC(=O)O)(CC(COC(=O)O)OC(=O)O)O1", "cells": "CCL18", "value": ">100 µM"}
{"smiles": "O=c1[nH]c(=O)n([C@H]2C[C@H](O)[C@@H](CO)O2)cc1/C=C/Br", "strain or isolate": "HG-52", "cells": "HELF", "read by": "plaque count", "value": "5.8 µg/mL"}
{"smiles": "O=c1ccn([C@H]2C[C@H](O)[C@@H](CO)O2)c(=O)[nH]1", "cells": "HeLa", "read by": "virus yield", "value": "<50 µM"}
{"smiles": "Nc1nc(=O)n([C@@H]2O[C@H](CO)[C@@H](O)[C@@H]2F)cc1I", "strain or isolate": "K979", "cells": "HEP-2", "read by": "cytopathic effect", "value": "<0.03 µg/mL"}
{"smiles": "CC1(C)OCC2(CO[C@@H](n3ccc(NC(=O)c4ccccc4)nc3=O)C2)O1", "cells": "CCL18", "value": ">100 µM"}
{"smiles": "[O-][n+]1onc2ncnc(N3CC[N+]4(CC3)CC[N+]3(CCN(c5ncnc6no[n+]([O-])c56)CC3)CC4)c21", "strain or isolate": "US", "cells": "GMK", "read by": "plaque count", "value": "20.4 µM"}
{"smiles": "Nc1nc2c(ncn2COCCO)c(=O)[nH]1", "cells": "Vero cells", "read by": "plaque count", "value": "2.9 µg/mL"}
{"smiles": "CCc1cn([C@H]2C[C@H](O)[C@@H](CO)O2)c(=O)[nH]c1=O", "strain or isolate": "Clinical isolates", "cells": "BHK-21", "read by": "cytopathic effect", "value": "0.08–0.7 µg/mL"}
{"smiles": "CCc1cn([C@@H]2O[C@H](CO)[C@@H](O)[C@@H]2F)c(=O)[nH]c1=O", "strain or isolate": "MS", "cells": "CCRF-HSB-2", "read by": "plaque count", "value": "0.62 µM"}
{"smiles": "O=c1[nH]c(=O)n([C@H]2C[C@H](O)[C@@H](CO)O2)cc1I", "strain or isolate": "MS-M1", "cells": "VERO", "read by": "plaque count", "value": "6.1 µM"}
{"smiles": "[N-]=[N+]=NC(CBr)c1cc([C@H]2C[C@H](O)[C@@H](CO)O2)c(F)cc1F", "strain or isolate": "LYONS", "cells": "E6SM", "read by": "cytopathic effect", "value": ">400 µg/mL"}
{"smiles": "CSCc1cn([C@H]2C[C@H](O)[C@@H](CO)O2)c(=O)[nH]c1=O", "strain or isolate": "G", "cells": "PRK", "read by": "cytopathic effect", "value": "4 µg/mL"}
{"smiles": "C/C(=C\\Cn1cnc2c(=O)[nH]c(N)nc21)CO", "cells": "CCL18", "read by": "cytopathic effect", "value": ">100 µg/mL"}
{"smiles": "C/C(=N\\NC(=S)NC12CC3CC(CC(C3)C1)C2)c1ccccn1", "strain or isolate": "X-79", "cells": "BHK-21/4", "read by": "plaque count", "value": "0.15 µg/mL"}
{"smiles": "Nc1nc2c(ncn2C/C=C(/CO)c2ccccc2)c(=O)[nH]1", "cells": "CCL18", "read by": "cytopathic effect", "value": ">100 µg/mL"}
{"smiles": "Nc1nc2c(ncn2COCCO)c(=O)[nH]1", "strain or isolate": "196", "cells": "PRK", "read by": "cytopathic effect", "value": "0.02 µg/mL"}
{"smiles": "OC[C@H]1O[C@@H](c2cc(C(F)(F)F)c(F)cc2F)C[C@@H]1O", "strain or isolate": "LYONS", "cells": "E6SM", "read by": "cytopathic effect", "value": ">400 µg/mL"}
{"smiles": "O=c1[nH]c(=O)n([C@H]2C[C@H](O)[C@@H](CO)O2)cc1/C=C/Br", "strain or isolate": "LYONS", "cells": "PRK", "read by": "cytopathic effect", "value": "3.1 µg/mL"}
{"smiles": "O=c1ccn([C@H]2C[C@@H](O)[C@H](CO)O2)c(=O)[nH]1", "strain or isolate": "G", "cells": "VERO B", "read by": "cytopathic effect", "value": ">100 µM"}
{"smiles": "Cc1cn([C@@H]2CC3(CO2)COC(C)(C)O3)c(=O)[nH]c1=O", "cells": "CCL18", "value": ">100 µM"}
{"smiles": "OCC(=CCn1cnc2c(Cl)ncnc21)CO", "cells": "CCL18", "read by": "cytopathic effect", "value": ">100 µg/mL"}
{"smiles": "Cn1cc(C(=O)NCc2ccc(Cl)cc2)c(=O)c2cc(CN3CCOCC3)ccc21", "strain or isolate": "MS-M1", "cells": "VERO", "read by": "plaque count", "value": ">20 µM"}
{"smiles": "O=c1[nH]c(=O)n([C@@H]2O[C@H](CO)[C@@H](O)[C@@H]2O)cc1/C=C/Cl", "strain or isolate": "MS", "cells": "CCRF-HSB-2", "read by": "plaque count", "value": ">382 µM"}
{"smiles": "Nc1nc(=O)n([C@@H]2O[C@H](CO)[C@@H](O)[C@@H]2F)cc1I", "strain or isolate": "HG-52", "cells": "HELF", "read by": "plaque count", "value": "0.023 µg/mL"}
{"smiles": "[N-]=[N+]=NCc1cn([C@H]2C[C@H](O)[C@@H](CO)O2)c(=O)[nH]c1=O", "strain or isolate": "VDX192", "cells": "PRK", "read by": "cytopathic effect", "value": "4 µg/mL"}
{"smiles": "Cc1cn([C@@H]2O[C@H](CO)[C@@H](O)[C@@H]2O)c(=O)[nH]c1=O", "strain or isolate": "MS-M1", "cells": "VERO", "read by": "plaque count", "value": "3.6 µM"}
{"smiles": "Nc1ccn([C@@H]2C[C@](O)(CO)CO2)c(=O)n1", "cells": "CCL18", "value": ">100 µM"}
{"smiles": "Cc1cc([C@@H]2C[C@H](O)[C@@H](CO)O2)c(Cl)cc1F", "strain or isolate": "G", "cells": "E6SM", "read by": "cytopathic effect", "value": ">400 µg/mL"}
{"smiles": "C/C(=N\\NC(N)=S)c1ccccn1", "strain or isolate": "X-79", "cells": "BHK-21/4", "read by": "plaque count", "value": "0.9 µg/mL"}
{"smiles": "O=c1[nH]c(=O)n([C@H]2C[C@H](O)[C@@H](CO)O2)cc1I", "strain or isolate": "K979", "cells": "HEP-2", "read by": "cytopathic effect", "value": "<0.3 µg/mL"}
{"smiles": "CCn1cc(C(=O)O)c(=O)c2ccc(C)nc21", "strain or isolate": "UW", "cells": "HeLa", "read by": "cytopathic effect", "value": ">250 µg/mL"}
{"smiles": "OC[C@H]1O[C@@H](c2cc(C#CI)c(F)cc2F)C[C@@H]1O", "strain or isolate": "196", "cells": "E6SM", "read by": "cytopathic effect", "value": ">400 µg/mL"}
{"smiles": "O=c1[nH]c(=O)n([C@H]2C[C@H](O)[C@@H](CO)O2)cc1CCCl", "strain or isolate": "K979", "cells": "HEP-2", "read by": "cytopathic effect", "value": "<3 µg/mL"}
{"smiles": "O=C1O[C@H](CO)C[C@]1(O)CO", "cells": "CCL18", "value": ">100 µM"}
{"smiles": "O=Cc1cn([C@H]2C[C@H](O)[C@@H](CO)O2)c(=O)[nH]c1=O", "strain or isolate": "VDX192", "cells": "PRK", "read by": "cytopathic effect", "value": "0.4 µg/mL"}
{"smiles": "O=C(O)CP(=O)(O)O", "strain or isolate": "E-196", "cells": "MEF", "read by": "plaque count", "value": "13.1 µg/mL"}
{"smiles": "COc1cc(F)c([C@H]2C[C@H](O)[C@@H](CO)O2)cc1[N+](=O)[O-]", "strain or isolate": "LYONS", "cells": "E6SM", "read by": "cytopathic effect", "value": ">400 µg/mL"}
{"smiles": "O=C(O)P(=O)(O)O", "strain or isolate": "P", "cells": "GMK", "read by": "plaque count", "value": "88.3 µM"}
{"smiles": "O=c1[nH]c(=O)n([C@H]2C[C@H](O)[C@@H](CO)O2)cc1I", "strain or isolate": "MS", "cells": "HELF", "read by": "plaque count", "value": "1.95 µg/mL"}

The last 6 rows once more:

smiles | strain or isolate | cells | read by | value
O=C1O[C@H](CO)C[C@]1(O)CO | - | CCL18 | - | >100 µM
O=Cc1cn([C@H]2C[C@H](O)[C@@H](CO)O2)c(=O)[nH]c1=O | VDX192 | PRK | cytopathic effect | 0.4 µg/mL
O=C(O)CP(=O)(O)O | E-196 | MEF | plaque count | 13.1 µg/mL
COc1cc(F)c([C@H]2C[C@H](O)[C@@H](CO)O2)cc1[N+](=O)[O-] | LYONS | E6SM | cytopathic effect | >400 µg/mL
O=C(O)P(=O)(O)O | P | GMK | plaque count | 88.3 µM
O=c1[nH]c(=O)n([C@H]2C[C@H](O)[C@@H](CO)O2)cc1I | MS | HELF | plaque count | 1.95 µg/mL

Rows are shuffled and stem from different studies. ECn: concentration that inhibits the pathogen or its effect by n%. Two numbers with a dash give a range or band.